{"source": "paper PMC3923783", "test_system": "His-ORF57 8-120 WT + GST-ALYREF", "assay": "GST pull-down and UV cross-linking", "settings": "cross-link to ORF57 falls, to GST-ALYREF rises; recombinant protein; protein details: His6,GST; label: radioactive end label", "note": "For at least one entry, the source does not settle the construct or the ends of the probe."}
{"sequence": "GAAGAGG [7merS end-labeled]", "values": [{"measurement": "binding result", "result": "binds"}]}
{"sequence": "CAGUCGCGAAGAGG [14merS end-labeled]", "values": [{"measurement": "binding result", "result": "binds"}]}
